Experiment [1] in a line: Selectivity ratio of MIC for quinolone resistant Escherichia coli isolate ELZ4251 harboring gyrA/parC mutant to MIC for wild type Escherichia coli ATCC 25922. It is filed as functional.
The nature of experiment [2]: Selectivity ratio of MIC for fluoroquinolone resistant Escherichia coli SKM18 to MIC for wild type Escherichia coli ATCC 25922. It is filed as functional. Summed up:
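MICs were determined by CLSI guidelines with growth in brain–heart–infusion medium, against fluoroquinolone-resistant E. coli SKM18 and wild-type E. coli ATCC 25922. The ratio is SKM18 MIC over ATCC 25922 MIC.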

As for `CNCc1cc2cc3c(cc2n1C)CCCc1c-3[nH]c(=O)c(C(=O)O)c1O`, the Ratio in experiment [1] and in experiment [2] was 2 to 4 in each case.

For `CC(C)NCc1cc2cc3c(cc2n1C)CCCc1c-3[nH]c(=O)c(C(=O)O)c1O`, the Ratio in experiment [1] and in experiment [2] was 2 to 4 throughout.

Consider `Cn1c(CN2CCCC2)cc2cc3c(cc21)CCCc1c-3[nH]c(=O)c(C(=O)O)c1O`, for which the Ratio in experiment [1] and in experiment [2] was 2 to 4 in each case.

As for `Cn1c(CNC2(C)CCC2)cc2cc3c(cc21)CCCc1c-3[nH]c(=O)c(C(=O)O)c1O`, the Ratio in experiment [1] and in experiment [2] was 2 to 4 in each case.

As to `CN(C)Cc1cc2cc3c(cc2n1C)CCCc1c-3[nH]c(=O)c(C(=O)O)c1O`, the Ratio in experiment [1] and in experiment [2] was 2 to 4 each time.

The record behind these values is ChEMBL document CHEMBL4190388, “Discovery and Optimization of Indolyl-Containing 4-Hydroxy-2-Pyridone Type II DNA Topoisomerase Inhibitors Active against Multidrug Resistant Gram-negative Bacteria” (J Med Chem, 2018).
